## Screening data, single-dose tests

Measurements from “University of Dundee, Small-Polar-MMV Screening Library” (2021), ChEMBL document CHEMBL3988442.

The filed quantity is “Percent Effect” (%). How 0% and 100% were set is not recorded. Most values in the screen are low, and negative values occur. Many other results are left out here, so strong results are more common than in the screen. A dash means the value is not listed here; it may have been measured.

A: 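Growth of Mycobacterium tuberculosis over 3 days (7H9 medium with glucose and tyloxapol); the read-out is not stated. Concentration: 500 µM. Direction is inferred from retests: higher values go with more growth inhibition. Of about 18,000 compounds tested this way, about 1,400 (7.9%) reached 50% or more in at least one test.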
B: 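Phenotypic screen: M. tuberculosis growth, cholesterol and DPPC medium, 4 days; the read-out is not stated. Tested at 500 µM. Higher reads as more growth inhibition (inferred: compounds with an IC50 in retests scored well above the rest). Of about 18,000 compounds tested this way, about 900 (5%) reached 50% or more in at least one test.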

{"compound": "CC(C)OCc1cccc(NC(C)C(=O)NC(N)=O)c1", "stereo": "centres unmarked", "A": 24.73, "B": 5.622}
{"compound": "O=C(N1CCCC(O)C1)C1(O)Cc2ccccc2C1", "stereo": "centres unmarked", "B": 8.018}
{"compound": "CCOC(=O)CN(C)c1ccc2nnnn2n1", "A": -0.8419}
{"compound": "Cc1nnc(C(C)NC(=O)c2ccc(CO)cc2)o1", "stereo": "centres unmarked", "A": -2.334}
{"compound": "CN(C(=O)COCC(F)(F)F)C1CCS(=O)(=O)C1", "stereo": "centres unmarked", "A": -0.4097}
{"compound": "NC(=O)CN1CCC(OCc2ccccc2)CC1", "A": 35.29, "B": 6.381}
{"compound": "CC[C@H](C)[C@H](N)C(=O)NCCCc1ccncc1", "A": 12.63}
{"compound": "Cc1ccc(S(=O)(=O)NCC(C)N)cc1Br", "stereo": "centres unmarked", "A": 36.84}
{"compound": "CCOCCN(C)Cc1cccnc1C", "A": 1.698}
{"compound": "COCCC1(CO)CCCN(Cc2c(C)n[nH]c2C)C1", "stereo": "centres unmarked", "A": 4.451}
{"compound": "CNc1ccnc(C(N)=O)c1", "A": -11.02}
{"compound": "Nc1ccc(N2CCNCC2=O)cn1", "A": -107.4}
{"compound": "NC(=O)C1CCCN(CCc2ccccc2)C1", "stereo": "centres unmarked", "A": 85.82}
{"compound": "Cc1nc(NC(=O)Nc2ccc(N(C)C)nc2)oc1C", "A": -9.212}
{"compound": "Cc1ccccc1-c1nnc(CN2CCCS2(=O)=O)o1", "B": 15.46}
{"compound": "N[C@@H]1CCN(C(=O)CCSCc2ccccc2)C[C@H]1O", "A": 28.64}
{"compound": "C=C(C)CCOC(=O)c1cc(C(N)=O)cs1", "A": 64.29, "B": 80.28}
{"compound": "O=C([C@H]1CC[C@@H](O)CC1)N1CCC(c2nnc[nH]2)CC1", "A": 8.206}
{"compound": "C=C(Cl)CNC(=O)CNC(=O)Cc1ccc(O)cc1", "A": 15.92}
{"compound": "CC(C)Cc1cc(C(=O)NCC2CCCN(C)C2)[nH]n1", "stereo": "centres unmarked", "B": 9.064}
{"compound": "CCN1CCC(CNCc2ccco2)C1", "stereo": "centres unmarked", "B": -7.241}
{"compound": "CS(=O)(=O)CC1(CNCc2cccnc2)CC1", "A": -2.635}
{"compound": "CCSCCC(=O)N1CCC(c2nnc[nH]2)CC1", "B": -5.648}
{"compound": "CCN(CC)Cc1ccc2c(c1)CNCCO2", "B": -25.16}
{"compound": "CCNC(=O)NC(=O)CN(C)Cc1ccccc1", "A": 50.88}
{"compound": "CNCc1csc(C(C)OC)n1", "stereo": "centres unmarked", "A": 7.558}
{"compound": "CCNCc1cccc(NC(=O)C(C)COC)c1", "stereo": "centres unmarked", "A": 45.85}
{"compound": "CCCN1CCC(Cc2noc(C3CCNC3)n2)CC1", "stereo": "centres unmarked", "A": 3.83, "B": -2.218}
{"compound": "CCNC(=O)Cn1c(=O)n(CC)c2ccccc21", "A": 2.534}
{"compound": "CCC1(O)CN(S(=O)(=O)c2ncn(C)c2Cl)C1", "B": -8.273}
{"compound": "Cn1cnc2cc(F)ccc21", "B": 2.112}
{"compound": "Cn1ccnc1CN1CCN(C2=NCC(C)(C)S2)CC1", "A": 0.05506}
{"compound": "O=C(c1ccncc1F)N1CCC2(CCC2O)CC1", "stereo": "centres unmarked", "B": 4.235}

Some entries from above, unchanged:

Compound	A	B
Cc1nc(NC(=O)Nc2ccc(N(C)C)nc2)oc1C	-9.212	-
CNCc1csc(C(C)OC)n1 (centres unmarked)	7.558	-
CCOC(=O)CN(C)c1ccc2nnnn2n1	-0.8419	-